The experiment has as its target T1, MERS-CoV spike heptad repeat 1 peptide, biotinylated (MERS-CoV, biotin (position not given)).
T1 chain: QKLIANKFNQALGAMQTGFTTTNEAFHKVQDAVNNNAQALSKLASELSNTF
The experiment in a line: BLI. Background: In BLI a coated tip is dipped into the sample, and binding shifts an interference pattern.

B1: Yongshi (pSer), C36S derivative of the wild boar cathelicidin peptide PMAP-36R (peptide)
chain: VGRFRRLRKKTRKRLKKIGKVLKWIPPIVGSIPLGSG
Turning to B1, binding was put at a Kd of 38.8 µM.

These data come from article PMC10480232 (Scientific Reports, 2023).
